Compound potency records, mixed from different reports. Data source: NIAID ChemDB in PubChem.

All rows: growth or infection tests; species: HIV-1; endpoint: EC50

Blank or dashed fields: not listed here. Lines come from different laboratories, so protocols vary. ECn: concentration that inhibits the pathogen or its effect by n%.

| compound | strain or isolate | mutations | cell line | method | setting | value |
|---|---|---|---|---|---|---|
| O=C1O[C@H]2[C@@H]3OC(=O)c4cc(O)c(O)c(O)c4-c4c(cc(O)c(O)c4O)C(=O)OC[C@H]2O[C@@H](OC(=O)c2cc(O)c(O)c(O)c2)[C@@H]3OC(=O)c2cc(O)c(O)c3c2[C@@H]2C1=CC(=O)[C@](O)(O3)C2(O)O | NNRTI-resistant (RT Y181C) ARP1013 | RT-Y181C | MAGI |  |  | 2.1 µg/mL |
| C/C(=C(/CCO)SS/C(CCO)=C(\C)N(C=O)Cc1cnc(C)nc1N)N(C=O)Cc1cnc(C)nc1N | IIIB |  | MOLT-4/HIV-1(IIIB) + MOLT-4 | p24 |  | <125 µM |
| N#Cc1cc2[nH]c3ccccc3c2n(-c2ccc([N+](=O)[O-])cc2)c1=O | Recombinant | RT-A62T V118I M184V | HeLa | luciferase |  | 1.11 µM |
| CCn1nc(Cc2cccnc2)cc1C1CCN(C[C@H]2CN([C@@H](C(=O)O)C3CCCCC3)C[C@@H]2c2cccc(F)c2)CC1 | BaL |  | HeLa | β-galactosidase | 50% human serum | <0.033 µM |
| CCCN(C)C(=O)Oc1nsnc1-c1c(Cl)ccc(N)c1Cl | IIIB | RT-T240I | MAGI | MTT |  | 0.19 µM |
| CC[C@@H](C)[C@H](C(=O)O)N1C[C@H](CN2CCC(c3cc(Cc4ccc(OCC(F)(F)F)cc4)nn3CC)CC2)[C@@H](c2cccc(F)c2)C1 | BaL |  | HeLa | β-galactosidase |  | <0.0037 µM |
| CC(C)OC(=O)OCOP(=O)(CO[C@H](C)Cn1cnc2c(N)ncnc21)OCOC(=O)OC(C)C | NL4-3 |  | TZM-gfp | GFP |  | 1 µM |
| CC(C)(C)NC(=O)[C@@H]1CN(Cc2cccnc2)CCN1C[C@@H](O)C[C@@H](Cc1ccccc1)C(=O)N[C@H]1c2ccccc2C[C@H]1O | 1617-1 NRTI resistant recombinant | RT-T69K K70G V75I F77L F116Y Q151M M184V | PBMC | RT activity |  | 0.0052 µM |
| CC[C@@H](C)[C@H](C(=O)O)N1C[C@H](CN2CCC(c3cc(Cc4cc(C(F)(F)F)cc(C(F)(F)F)c4)nn3CC)CC2)[C@@H](c2cccc(F)c2)C1 | BaL |  | HeLa | β-galactosidase |  | <0.033 µM |
| Cc1ccnc2c1NC(=O)c1cccnc1N2C1CC1 | NL4-3 | RT-K103N | MAGI (CCR5) + MAGI | β-galactosidase |  | 4.3 µM |
| Cc1cc(S(N)(=O)=O)ccc1NC(=O)COc1ccc(Cl)cc1C(=O)c1cc(Cl)cc(C#N)c1 | NNRTI-resistant (RT K103N Y181C) | RT-K103N Y181C | MAGI | β-galactosidase |  | 0.0014 µM |
| CCc1c(CC2CCCCC2)nc(SCC(=O)c2ccccc2)[nH]c1=O | NL4-3 | V106M | C8166 | p24 / ELISA |  | 0.172 µM |
| Nc1ccn([C@H]2CC[C@@H](CO)O2)c(=O)n1 | RTMC (RT D67N K70R T215F K219Q) | RT-D67N K70R T215F K219Q | HT4 + HT4 LacZ-1 | plaque count |  | 0.49 µM |
| Cc1ccnc2c1NC(=O)c1cccnc1N2C1CC1 | A17 NNRTI-resistant lab strain | RT-Y181C | PBMC | p24 |  | 47 µM |
| O=c1[nH]cnc2c1ncn2[C@H]1CC[C@@H](CO)O1 | HXB2 | RT-M184V | MAGI (CCR5) + MAGI | β-galactosidase |  | 3.7 µM |
| S=C(NCCc1cccs1)Nc1ccc(Br)cn1 | P467-1 Clinical isolate NRTI-resistant | RT-K70R | HT4 + HeLa | plaque count |  | 0.0611 µM |
| CCCCOc1ccc(Cc2cc(C3CCN(C[C@H]4CN([C@@H](C(=O)O)C5CCCCC5)C[C@@H]4c4cccc(F)c4)CC3)n(CC)n2)cc1 | BaL |  | HeLa | β-galactosidase | 50% human serum | <0.033 µM |
| Cc1cn([C@H]2C[C@H](N=[N+]=[N-])[C@@H](CO)O2)c(=O)[nH]c1=O | HXB2-D (RT-WT |  | HT4 + HT4-6C | plaque count |  | 0.005 µM |
| CC(=O)N1CCC(C(=O)N(CCCN2CCC(Cc3ccc(C(N)=O)cc3)CC2)c2ccc(C)c(Cl)c2)CC1 | R5 subtype A_1 recombinant |  | U87 (CD4+ CCR5+) + U87 | luciferase |  | 0.0029 µM |
| C#C[C@]1(CO)O[C@@H](n2cnc3c(N)nc(F)nc32)C[C@@H]1O | Clinical isolate | V90I | MT4-GFP | fluorescence |  | 0.00093 µM |
| Nc1ccn([C@H]2C=C[C@@H](CO)O2)c(=O)n1 | HXB2 | RT-M184V | CD4+HELA + HeLa | plaque count |  | 0.5 µM |
| Cn1c2ccccc2c2c1cc(C#N)c(=O)n2-c1ccc([N+](=O)[O-])cc1 | NNRTI-resistant | RT-K103N | HeLa | luciferase |  | 0.0115 µM |
| Cc1cn([C@H]2C[C@H](N=[N+]=[N-])[C@@H](CO)O2)c(=O)[nH]c1=O | 56252-1 NRTI resistant recombinant | RT-T69K K70G V75I F77L F116Y Q151M M184V | PBMC | p24 |  | >1 µM |
| Nc1nc(=O)n([C@@H]2CS[C@H](CO)O2)cc1F | LAI |  | Primary T lymphocytes | p24 / ELISA |  | 0.09 µM |
| Cc1ccnc2c1NC(=O)c1cccnc1N2C1CC1 |  |  | CD4+ T-cell | luminescence |  | >40.5 µM |
| CCn1nc(Cc2cc(C(F)(F)F)cc(C(F)(F)F)c2)cc1C1CCN(C[C@H]2CN([C@@H](C(=O)O)C(C)C)C[C@@H]2c2cccc(F)c2)CC1 | BaL |  | HeLa | β-galactosidase |  | <0.1 µM |
| Nc1ccn([C@@H]2CS[C@H](CO)O2)c(=O)n1 |  | L74V | Primary T lymphocytes | p24 / ELISA |  | 0.6 µM |
| Cc1ccnc2c1NC(=O)c1cccnc1N2C1CC1 | RTMC(181 184) (RT 67N K70R Y181C M184V T215F K219Q) | RT-D67N K70R Y181C M184V T215F K219Q | HT4 + HT4 LacZ-1 | plaque count |  | 4.6 µM |
| O=c1[nH]cnc2c1ncn2C1CC[C@@H](CO)O1 |  | A62V V75I F77L F116Y Q151M | Primary T lymphocytes | p24 / ELISA |  | 40.5 µM |
| Nc1ccn([C@H]2CC[C@@H](CO)O2)c(=O)n1 | HXB2 | RT-V75T 184V | CD4+HELA + HeLa | plaque count |  | 2 µM |
| Cc1cn([C@H]2C[C@H](N=[N+]=[N-])[C@@H](CO)O2)c(=O)[nH]c1=O | IIIB |  | CEMx174 + CEM | cytopathic effect / XTT |  | 0.03 µM |
| Cc1cc(C#N)cc(C)c1Oc1nc(Nc2ccc(C#N)cc2)nc(N)c1Br | Clinical isolate |  | HEK293T | luciferase | clinical isolate | 0.00226 µM |
| COC(=O)[C@H](C)NP(=O)(OC[C@@H]1C=C[C@H](n2cc(C)c(=O)[nH]c2=O)O1)Oc1ccc(Br)cc1 | BR/92/019 NRTI resistant | RT-D67N L214F T215D K219Q | PBMC | p24 |  | 0.002 µM |
| CC[C@@H](C)[C@H](C(=O)O)N1C[C@H](CN2CCC(c3cc(Cc4cccc(CN)c4)nn3CC)CC2)[C@@H](c2cccc(F)c2)C1 | BaL |  | HeLa | β-galactosidase | 50% human serum | <0.033 µM |
| Cc1cn([C@H]2C[C@H](N=[N+]=[N-])[C@@H](CO)O2)c(=O)[nH]c1=O | G190-6 Clinical isolate ZDV-resistant | RT-M41L D67N K70R T215Y K219Q | HT4 + HeLa | syncytia |  | 10 µM |
| Nc1ccn([C@H]2CC[C@@H](CO)O2)c(=O)n1 | U455 |  | PBL | p24 |  | 0.02 µM |
| CC(C)=CCN1Cc2cc(Cl)cc3[nH]c(=S)n(c23)C[C@@H]1C | HXB2 | RT-L74V Y181C | HT4 + HT4 LacZ-1 | plaque count |  | 4 µM |
| Cc1cn([C@H]2C=C[C@@H](CO)O2)c(=O)[nH]c1=O | NL4-3 WT |  | HeLa | luciferase |  | 1.221 µM |